{"source": "PubChem BioAssay AID1224833 | University of Georgia, 2016", "screen": "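Human genes whose knock-down alters rotavirus replication in monkey cells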 (primary screen)", "cells": "monkey MA104 kidney cells", "reagents": "siRNA pool against human genes, 50 nM", "time to read-out": "48 h knock-down before infection; read 24 h after infection", "conditions": "infection with rotavirus strain RV3 two days after transfection; infectious dose for this stage not given", "measured": "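Rotavirus antigen per well by fluorescent immunoassay, normalised to non-targeting control wells on each plate and given as a standard z-score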", "scale": "z-score vs non-targeting control: higher = more rotavirus replication than with non-targeting control", "rule for the call": "In these data the active calls have z-score vs non-targeting control at about -1 or lower, or at about 1 or higher", "calls": "active = z-score beyond 1 either way; inactive = z-score within 1 of zero", "note": "Shown is one part, drawn at random, of about 12,000 deposited reagents. In the full data, about 5,600 (46%) got an active call. 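Active calls cover z-scores past 1 in both directions, so they include lowered as well as raised rotavirus replication.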 Entries without a mark were called inactive. Reagent sequences are not shown."}
{"gene symbol": "STX10 (syntaxin 10)", "z-score vs non-targeting control": -0.656}
{"gene symbol": "CLIP3 (CAP-Gly domain containing linker protein 3)", "z-score vs non-targeting control": "-1.35 (active)"}
{"gene symbol": "ARHGEF12 (Rho guanine nucleotide exchange factor 12)", "z-score vs non-targeting control": "1.92 (active)"}
{"gene symbol": "OR2W5", "z-score vs non-targeting control": -0.47}
{"gene symbol": "MPPED1 (metallophosphoesterase domain containing 1)", "z-score vs non-targeting control": -0.515}
{"gene symbol": "CC2D2A (coiled-coil and C2 domain containing 2A)", "z-score vs non-targeting control": -0.694}
{"gene symbol": "OPRM1 (opioid receptor mu 1)", "z-score vs non-targeting control": -0.893}
{"gene symbol": "PSMB3 (proteasome 20S subunit beta 3)", "z-score vs non-targeting control": "2.12 (active)"}
{"gene symbol": "FCRLB (Fc receptor like B)", "z-score vs non-targeting control": "-1.37 (active)"}
{"gene symbol": "GJA3 (gap junction protein alpha 3)", "z-score vs non-targeting control": "1.49 (active)"}
{"gene symbol": "RPS4Y2 (ribosomal protein S4 Y-linked 2)", "z-score vs non-targeting control": "1.11 (active)"}
{"gene symbol": "H2BC10 (H2B clustered histone 10)", "z-score vs non-targeting control": 0.0288}
{"gene symbol": "LIN52 (lin-52 DREAM MuvB core complex component)", "z-score vs non-targeting control": "-1.59 (active)"}
{"gene symbol": "MPEG1 (macrophage expressed 1)", "z-score vs non-targeting control": 0.405}
{"gene symbol": "BEGAIN (brain enriched guanylate kinase associated)", "z-score vs non-targeting control": "-1.18 (active)"}
{"gene symbol": "PLCE1 (phospholipase C epsilon 1)", "z-score vs non-targeting control": "-1.35 (active)"}
{"gene symbol": "BRCC3 (BRCA1/BRCA2-containing complex subunit 3)", "z-score vs non-targeting control": -0.589}
{"gene symbol": "YIPF7 (Yip1 domain family member 7)", "z-score vs non-targeting control": -0.51}
{"gene symbol": "HSD3B2", "z-score vs non-targeting control": 0.591}
